Data source: PubChem BioAssay AID504761 (Drosophila RNAi Screening Center, 2011)
In all, the deposit lists about 22,000 reagents; below is an unselected part of those with a known target gene and a result. In the full data, 116 (0.52%) are marked active. 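Calls depend on retest data that are not deposited; infection was ranked per plate without normalising between plates; the unit of the infection score is not given.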 Raw values are not corrected between plates. Unmarked entries are inactive. Names joined by + are all predicted targets of the reagent. Not all columns of the deposit are shown. Not given: the amount of reagent, the time to read-out.

Test: 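Insect host genes that dengue virus relies on to spread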 (primary screen)
System: D.Mel-2 cells from Drosophila
Knock-down reagent: long dsRNA against Drosophila genes
Conditions: infection with dengue virus type 2; dose and infection time not stated
Measured: 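Cells stained for dengue envelope protein and imaged; percent of infected cells per well on duplicate plates, ranked by infection, with stained nuclei counted for cell number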
Reading the numbers: infection score: higher = more virus-infected cells; cell count: higher = more cells in the well
Rule for the call: 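Low infection ranks in the two replicates (chance level up to 0.065) followed by a retest with a 1.5-fold or larger significant decrease, p below 0.05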
Calls: active = confirmed: knock-down lowers infection; inactive = not picked or not confirmed

LBR (Lamin B receptor) [DRSC04298]
- infection score, replicate 1: 17.2
- cell count, replicate 1: 7094

LBR (Lamin B receptor) [DRSC29462]
- infection score, replicate 1: 18.2
- cell count, replicate 1: 5383

CG32024 [DRSC21883]
- infection score, replicate 1: 2.29
- cell count, replicate 1: 7072

CG3651 [DRSC03730]
- infection score, replicate 1: 13.7
- cell count, replicate 1: 6130

CG13043 [DRSC09924]
- infection score, replicate 1: 1.45
- cell count, replicate 1: 6006

CG13043 [DRSC25440]
- infection score, replicate 1: 2.28
- cell count, replicate 1: 6312

CG16825 [DRSC02526]
- infection score, replicate 1: 17.2
- cell count, replicate 1: 5877

kon (kon-tiki) [DRSC02033]
- infection score, replicate 1: 13.9
- cell count, replicate 1: 6545

Gbs-70E (Glycogen binding subunit 70E) [DRSC11055]
- infection score, replicate 1: 5.18
- cell count, replicate 1: 6254

CG42362 + CG42363 [DRSC04265]
- infection score, replicate 1: 34.4
- cell count, replicate 1: 5980

CG4645 [DRSC19907]
- infection score, replicate 1: 1.18
- cell count, replicate 1: 6511

CG4645 [DRSC24802]
- infection score, replicate 1: 12.7
- cell count, replicate 1: 6065

CG6726 [DRSC16101]
- infection score, replicate 1: 0.63
- cell count, replicate 1: 6879

CG6726 [DRSC28130]
- infection score, replicate 1: 17.7
- cell count, replicate 1: 6145

mRpL24 (mitochondrial ribosomal protein L24) [DRSC03113]
- infection score, replicate 1: 10.1
- cell count, replicate 1: 4621

CG42534 [DRSC16072]
- infection score, replicate 1: 3.22
- cell count, replicate 1: 5993

CG42534 [DRSC23131]
- infection score, replicate 1: 3.2
- cell count, replicate 1: 6753

CG42534 [DRSC23246]
- infection score, replicate 1: 0.99
- cell count, replicate 1: 7138

CG42534 [DRSC26096]
- infection score, replicate 1: 4.54
- cell count, replicate 1: 5837

eco (Establishment of cohesion) [DRSC11006]
- infection score, replicate 1: 6.21
- cell count, replicate 1: 5235

sinu (sinuous) [DRSC09752]
- infection score, replicate 1: 2.13
- cell count, replicate 1: 6793

2 entries from above, reformatted.
| Gene | dsRNA | infection score, replicate 1 | cell count, replicate 1 |
| --- | --- | --- | --- |
| CG16825 | DRSC02526 | 17.2 | 5877 |
| kon (kon-tiki) | DRSC02033 | 13.9 | 6545 |
